Results taken from publication PMC3295573 (2012).

B1: LidA(188-580) (domain or fragment)
chain: TSSTSQADKEIQKMLDEYEQAIKRAQENIKKGEELEKKLDKLERQGKDLEDKYKTYEENLEGFEKLLTDSEELSLSEINEKMKAFSKDSEKLTQLMEKHKGDEKTVQSLQREHHDIKAKLANLQVLHDAHTGKKSYVNEKGNPVSSLKDAHLAINKDQEVVEHKGQFYLLQKGQWDAIKNDPAALEKAQKDYSQSKHDLATIKMEALIHKLSLEMEKQLETINDLIMSTDPKENEEATKLLHKHNGLNLKLANLQDMLAVHRKEKSFFNEKGEKVTSLNDAHYVIGKDQQLFNLGGKFYPIHKEQKILEKDGKFYLLKQGEDWESIKDSPEKQKKAEHDFHKLQYETPMTVKKLVHHNKGLETTIHKERIEETKQQLEDNGKEKIEIANNISK
B2: Rab4 (FL) (natural protein)
chain: MSQTAMSETYDFLFKFLVIGNAGTGKSCLLHQFIEKKFKDDSNHTIGVEFGSKIINVGGKYVKLQIWDTAGQERFRSVTRSYYRGAAGALLVYDITSRETYNALTNWLTDARMLASQNIVIILCGNKKDLDADREVTFLEASRFAQENELMFLETSALTGENVEEAFVQCARKILNKIESGELDPERMGSGIQYGDAALRQLRSPRRAQAPNAQECGC
B3: Rab9 (FL) (natural protein)
chain: MAGKSSLFKVILLGDGGVGKSSLMNRYVTNKFDTQLFHTIGVEFLNKDLEVDGHFVTMQIWDTAGQERFRSLRTPFYRGSDCCLLTFSVDDSQSFQNLSNWKKEFIYYADVKEPESFPFVILGNKIDISERQVSTEEAQAWCRDNGDYPYFETSAKDATNVAAAFEEAVRRVLATEDRSDHLIQTDTVNLHRKPKPSSSCC
B4: Rab20 (FL) (natural protein)
chain: MRKPDSKIVLLGDMNVGKTSLLQRYMERRFPDTVSTVGGAFYLKQWRSYNISIWDTAGREQFHGLGSMYCRGAAAIILTYDVNHRQSLVELEDRFLGLTDTASKDCLFAIVGNKVDLTEEGALAGQEKEECSPNMDAGDRVSPRAPKQVQLEDAVALYKKILKYKMLDEQDVPAAEQMCFETSAKTGYNVDLLFETLFDLVVPMILQQRAERPSHTVDISSHKPPKRTRSGCCA

Experiments:
Rab11 (FL) = Rab11 (FL) (human, UniProt P62491 1-216)
LidA(188-580) = biological target: B1

Binder | Kd (Rab11 (FL)) | Kd (LidA(188-580))
B1 | 2500 nM | –
B2 | – | 250 nM
B3 | – | 220 nM
B4 | – | 160 nM
